From patent publication US20150218142A1, “Derivatives of Betulin” (GlaxoSmithKline LLC, priority 2011, published 2015)

Tested on: HIV

CC(C)C1=C2[C@H]3CC[C@@H]4[C@@]5(C)CC[C@H](OC(=O)CC(C)(C)C(=O)O)C(C)(C)[C@@H]5CC[C@@]4(C)[C@]3(C)CC[C@@]2(C(=O)C(=O)N(CCN(C)C)Cc2ccc(Cl)cc2)CC1=O [Compound C]
Human Serum Fold Shift (40% human serum in a HIV multicell full life cycle assay): 48.9X | fold shift with human serum (human protein shift, human serum (HS)): 48.9 fold

CC(C)C1=C2[C@H]3CC[C@@H]4[C@@]5(C)CC[C@H](OC(=O)CC(C)(C)C(=O)O)C(C)(C)[C@@H]5CC[C@@]4(C)[C@]3(C)CC[C@@]2(C(=O)C(=O)NC2(c3ncc(Cl)cn3)CC2)CC1=O [CompoundB]
Fold shift with 40% HuS (LHIV IC50 with vs without 40% human serum): 13.4 fold
